Source: publication PMC11891622 (Angewandte Chemie (International Ed. in English), 2025)

Biological target: SARS-CoV-2 Nucleocapsid protein N-terminal globular domain NTD (44–180) (Severe acute respiratory syndrome coronavirus 2, UniProt P0DTC9)
Type: binding
Settings: pH 6.5

“Ac‐Glu‐Gly‐Glu‐Gly‐Glu‐Gly‐Gly‐Glu‐gggg‐Glu‐Gly‐Gly‐Glu‐Gly‐Glu‐(β‐Ala)‐Glu [P-PNA]” was tested, and the “average of the dissociation constants (Kd) for the most perturbed residues” value was “in the range of hundred micromolar”.
